Source: the supplement of paper PMC12137928

Tested on: HCT116
Conditions: 72 h
Outline: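 Four-parameter Hill fits gave IC50 and maximal efficacy. The data were CellTiter-Glo luminescence readings in HCT116 cells, normalized so that vehicle was 0% and positive control was -100%, with pattern correction afterwards.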

CCOP(=O)(OCC)SCC[N+](C)(C)C [Echothiophate Iodide]
IC50 cell viability (ICRF193 0 nM): > 45.8 µM | IC50 cell viability (ICRF193 200 nM): > 45.8 µM
